{
  "source": "patent US20210292397A1",
  "about": "(LA TROBE UNIVERSITY, published 2021)",
  "binders": {"B1": {"name": " (other)", "chain": "TDSTVSTDPVTLNTEKTTLDQDVVINGDNKITAVTIETSDSDKDLNVTFGGHDITAASTVNQDFVEGVKVSGNKNVVIAATASTITAQGEGTYVRTAMVIDSTGDVVVAGGNFVAKNEKGSATGISLEATTGNNLTLAGTTINAQGNKSYSNGSTAIFAQKGNLLQGFDGDATDNITLAASNIINGGIETIVTAGNKTGIHTVNLNIAAGSVIGAANNKQTIYASASAQGAGSATQNLNLSVAASTIYSDVLALSESENSASTTTNVNMNVAASYWEGNAYTFNSGDKAGSDLDINLSASSVWKGKVSGAGDASVSLQNGSVWNVTGSSTVDALAVKDSTVNITKATVNTGTFASQNGTLIVDASSENTLDISGKASGDLRVYSAGSLDLINEQTAFISTGKDSTLKATGTTEGGLYQYDLTQGADGNFYFVKNTHKASNASSVIQAMAAAPANVANLQADTL"}},
  "target": "T1, human fibronectin (human, UniProt P02751 32-2477)",
  "T1 construct": "also called FN; full-length (FL) fibronectin",
  "assay": "ELISA with a fibronectin-specific polyclonal antibody (FIG. 15F)",
  "data": [
    {"binder": "B1", "values": [
      {"measurement": "binding result", "result": "no binding"}
    ]}
  ]
}
